Laboratory results: PMC6805555, “Characterization of resistance to a potent D-peptide HIV entry inhibitor” (Retrovirology, 2019)

Tested on: IQN17 Q577R (HIV-1 N-trimer pocket mimic)
Assay: Crystal structure of PIE12 with Q577R IQN17 (PDB 6PSA), buried surface area and hydrogen bonds
Conditions: 1.3 Å resolution

SMILES: CC(=O)N[C@H](Cc1c[nH]cn1)C(=O)N1CCC[C@@H]1C(=O)N[C@@H]1CSSC[C@H](C(=O)N[C@H](CCC(=O)O)C(=O)N[C@H](CC(C)C)C(=O)NCC(=O)N[C@H](CCCCN)C(N)=O)NC(=O)[C@@H](CC(C)C)NC(=O)[C@@H](Cc2c[nH]c3ccccc23)NC(=O)[C@@H](CCC(N)=O)NC(=O)[C@@H](Cc2c[nH]c3ccccc23)NC(=O)[C@@H](CCC(=O)O)NC(=O)[C@H]2CCCN2C(=O)[C@@H](Cc2ccc(O)cc2)NC(=O)[C@@H](CC(=O)O)NC1=O [PIE12]
- hydrogen bonds: loss of two hydrogen bonds; also recorded: Q577R disrupts these hydrogen bonds

Entries after “also recorded” stand apart in the source; their conditions may differ.
